A mixed list of measured activities; the numbers were collected in NIAID ChemDB.

Shared fields: cytotoxicity tests; cells: CEM; endpoint: CC50

CCn: concentration that lowers growth or viability of the cells by n%.

SMILES	read by	value
C=C(C)[C@@H]1CC[C@]2(C(=O)NCCCCCCCC(=O)N[C@@H](CC(=O)O)C(=O)O)CC[C@]3(C)[C@H](CC[C@@H]4[C@@]5(C)CC[C@H](O)C(C)(C)[C@@H]5CC[C@]43C)[C@@H]12	-	>3 µM
O=[N+]([O-])c1ccc[n+]([O-])c1SCc1ccccc1	-	30 µg/mL
CCCCC(=O)c1ccc2c(c1)sc(=O)n2CC=O	-	4.1 µg/mL
CCCCCCCCC[n+]1ccc2cc(OC)c(OC)c3c2c1C=CN3	-	<1 µM
CN1CCCC12C1CC3CC(C1)CC2C3	-	>200 µg/mL
COc1ccc(/C=N/N=C(/N)NO)cc1OC	-	62 µg/mL
OC[C@@H]1C[C@H](n2cnc3c(=S)nc[nH]c32)[C@@H](O)[C@H]1O	-	>100 µM
O=c1ccn([C@@H]2O[C@H](CO)C(F)(F)C2(F)F)c(=O)[nH]1	-	>100 µM
Nc1ncnc2c1ncn2C/C=C/CN1C(=O)c2ccccc2C1=O	cell count	>50 µM
C/C(=N\NC(=O)CN1c2c(-c3ccccc3)n[nH]c2-c2ccccc2S1(=O)=O)c1cc2ccccc2oc1=O	MTS	27.8 µM
Cc1cn([C@H]2C=C[C@@H](CO)O2)c(=O)[nH]c1=O	-	>250 µM
O=C1c2ccccc2C(=O)N1C/C=C\Cn1cc(F)c(=O)[nH]c1=O	cell count	>50 µM
Cn1cc(NC(=O)c2cc(NC(=O)[C@H]3CCC(N)=N3)c[nH]2)cc1C(=O)NCCC(=N)N	-	750 µM
Cc1ccc(C)c(CS(=O)(=O)c2cccc[n+]2[O-])c1	-	31 µg/mL
Nc1nc2c(ncn2[C@@H]2O[C@H](CO)C[C@@H]2F)c(=O)[nH]1	-	>53 µM
Nc1nc(=O)n([C@H]2C=C[C@@H](CO)O2)cc1F	-	~100 µM
S=C(Cc1ccccn1)NCc1ccccc1Cl	-	21.1 µM
C=C(C)[C@@H]1CC[C@]2(C(=O)NCCCCCCCNC(=O)CC(=O)O)CC[C@]3(C)[C@H](CC[C@@H]4[C@@]5(C)CC[C@H](O)C(C)(C)[C@@H]5CC[C@]43C)[C@@H]12	-	>3 µM
S=C(CCCc1ccccc1)Nc1ccc(Cl)cn1	-	46.7 µM
CC(C)CS[C@@H]1C[C@H](n2cnc3c(N)ncnc32)[C@@H](O)[C@H]1O	-	94 µg/mL
Cc1ccc(C(C)S(=O)(=O)c2c(C)ccc[n+]2[O-])c(C)c1	-	>100 µg/mL
COc1cc(Br)c(/C=N/N=C(\N)NO)cc1OC.Cc1ccc(S(=O)(=O)O)cc1	-	16 µg/mL
CCCCCCCCCCCC(=O)Oc1ccc(COP(=O)(OCc2ccc(OC(=O)CCCCCCCCCCC)cc2)OP(=O)(O)OC[C@@H]2C=C[C@H](n3cc(C)c(=O)[nH]c3=O)O2)cc1	-	39 µM
Cc1cn([C@@H]2O[C@H](CO)[C@@H](O)[C@@H]2O)c(=O)n(CCF)c1=O	-	>500 µg/mL
C/C(=N\NC(=O)CN1c2c(-c3ccccc3)n[nH]c2-c2ccccc2S1(=O)=O)c1ccc[nH]1	MTS	20 µM
C=C(C)[C@@H]1CC[C@]2(C(=O)NCCCCCCCC(=O)N3CCCC(C(=O)O)C3)CC[C@]3(C)[C@H](CC[C@@H]4[C@@]5(C)CC[C@H](O)C(C)(C)[C@@H]5CC[C@]43C)[C@@H]12	-	>3 µM
CCCCCCCCCCCCN1C=Cc2nccc3cc(OC)c(OC)c1c23	-	<1 µM
COc1ccc(C)cc1CS(=O)(=O)c1cccc[n+]1[O-]	-	70 µg/mL
NC1=NNC2(C(N)=N1)c1ccccc1-c1ccccc12	-	81 µM
Cc1cn([C@@H]2O[C@H](C(COC(=O)c3ccccc3)OC(=O)c3ccccc3)C3(OS(=O)(=O)C=C3N)[C@H]2O[Si](C)(C)C(C)(C)C)c(=O)[nH]c1=O	-	3.9 µM
Cc1cccc(C(=O)c2ccc3[nH]c(=O)sc3c2)c1	-	11 µg/mL
Cc1cccc2c1CP(=O)(OC[C@@H]1CC[C@H](n3ccc(=O)[nH]c3=O)O1)CC2	-	104 µM
S=C1N=C(Cl)C2(NN1)c1ccccc1-c1ccccc12	-	200 µM
Nc1nc2c(ncn2[C@@H]2C=C[C@H](CO)C2)c(=O)[nH]1	-	>100 µM
CCCCCCCCCCCC(=O)Oc1ccc(COP(=O)(OCc2ccc(OC(=O)CCCCCCCCCCC)cc2)OP(=O)([O-])OC[C@@H]2C=C[C@H](n3ccc(=O)[nH]c3=O)O2)cc1	-	116 µM
Cc1cn([C@@H]2O[C@H](C3CO[Si](C(C)C)(C(C)C)O[Si](C(C)C)(C(C)C)O3)C3(OS(=O)(=O)C=C3N)[C@H]2O[Si](C)(C)C(C)(C)C)c(=O)[nH]c1=O	-	53.1 µM
COc1ccc(N2CCN(NC(=O)c3ccc(C(F)(F)F)nc3Nc3cc(Cl)ccc3C)CC2)cc1	MTT	>50 µM
CN(C)CC1CC12C1CC3CC(C1)CC2C3	-	23 µg/mL
Cn1c(=O)sc2cc(C(=O)c3ccc(Cl)c([N+](=O)[O-])c3)ccc21	-	11 µg/mL
Nc1nc(N)c2ncn([C@@H]3O[C@H](CO)C[C@@H]3F)c2n1	-	>93 µM
S=c1[nH]c(=S)c2c3c(sc2[nH]1)CCCCC3	-	>100 µM
CC(C)OC(=O)[C@H](C)NP(=O)(OC[C@H]1O[C@@H](n2cnc3c(=O)[nH]c(N)nc32)C(F)(F)C1(F)F)Oc1ccccc1	-	>100 µM
COc1cc(/C=N/N=C(\N)NO)c(Cl)cc1O.Cc1ccc(S(=O)(=O)O)cc1	-	69 µg/mL
C/C(=N\NC(=O)CN1c2c(-c3ccccc3)n[nH]c2-c2ccccc2S1(=O)=O)c1sccc1Br	MTS	19.6 µM
COc1cc2ccnc3c2c(c1OS(=O)(=O)c1ccccc1)N(C)C=C3	-	2 µM
Cn1c(=O)sc2cc(C(=O)c3ccc(Cl)c(Cl)c3)ccc21	-	8.5 µg/mL
C=C(C)[C@@H]1CC[C@]2(C(=O)NCCCCCCCNC(=O)CCCC(=O)O)CC[C@]3(C)[C@H](CC[C@@H]4[C@@]5(C)CC[C@H](O)C(C)(C)[C@@H]5CC[C@]43C)[C@@H]12	-	>3 µM
Cn1cc(NC(=O)c2cc(NC(=O)[C@@H]3CCC(N)=N3)c[nH]2)cc1C(=O)NCCC(=N)N	-	750 µM
O=C(Nc1ccc(Cl)cc1)N1CCCC12C1CC3CC(C1)CC2C3	-	3.4 µg/mL
O=C1NC(SC(SC2=NNC3(C(=O)N2)c2ccccc2-c2ccccc23)=C(SC2=NNC3(C(=O)N2)c2ccccc2-c2ccccc23)SC2=NNC3(C(=O)N2)c2ccccc2-c2ccccc23)=NNC12c1ccccc1-c1ccccc12	-	79 µM
CCCCCCCCCN1C=Cc2nccc3cc(OC)c(OC)c1c23	-	1.2 µM
CN(C)[C@@H]1C(=O)C(C(=O)NCN2CCCC2)=C(O)[C@@]2(O)C(=O)C3=C(O)c4c(O)cccc4[C@@](C)(O)[C@H]3C[C@@H]12	MTT	>45.5 µM
NC/C=C/Cn1cc(C(F)(F)F)c(=O)[nH]c1=O	cell count	50 µM
COc1cc(/C=N/N=C(\N)NO)c([N+](=O)[O-])cc1OC	-	18 µg/mL
Cc1cn([C@H]2C[C@H](F)[C@@H](CO)O2)c(=O)n(C)c1=O	-	>500 µg/mL
CC(C)c1c(Cc2ccccc2)n(COCc2ccccc2)c(=O)[nH]c1=O	-	>10 µM
CCCCCCC(=O)Oc1ccc(COP(=O)(OCc2ccc(OC(=O)CCCCCC)cc2)OP(=O)(O)OC[C@@H]2C=C[C@H](n3cc(C)c(=O)[nH]c3=O)O2)cc1	-	85 µM
CC(=O)Nc1nc2c(ncn2C/C=C\CN2C(=O)c3ccccc3C2=O)c(=O)[nH]1	cell count	>50 µM
OC1COC(O)C(O)C1O.OCC1OC(O)C(O)C(O)C1O.OCC1OC(O)C(O)C(O)C1O.OCC1OC(O)C(O)C(O)C1O	-	>100 µg/mL
CCCCCCCCCCCCCCCC(=O)Oc1ccc(COP(=O)(OCc2ccc(OC(=O)CCCCCCCCCCCCCCC)cc2)OP(=O)(O)OC[C@@H]2C=C[C@H](n3cc(C)c(=O)[nH]c3=O)O2)cc1	-	72 µM
CC(C)OC(=O)[C@H](C)NP(=O)(OC[C@H]1O[C@@H](n2ccc(=O)[nH]c2=O)C(F)(F)C1(F)F)Oc1ccccc1	-	>100 µM
CC(C)C(=O)Oc1ccc(COP(=O)(OCc2ccc(OC(=O)C(C)C)cc2)OP(=O)([O-])OC[C@@H]2CC[C@H](n3ccc(=O)[nH]c3=O)O2)cc1	-	>250 µM
Cn1cc(NC(=O)[C@@H]2CCC(N)=N2)cc1C(=O)NCCC(=N)N	-	>127 µM
CCCN1C=Cc2nccc3cc(OC)c(OC)c1c23	-	7.6 µM

9 of the rows above, restated:

SMILES,read by,value
COc1cc(/C=N/N=C(\N)NO)c([N+](=O)[O-])cc1OC,-,18 µg/mL
CN(C)[C@@H]1C(=O)C(C(=O)NCN2CCCC2)=C(O)[C@@]2(O)C(=O)C3=C(O)c4c(O)cccc4[C@@](C)(O)[C@H]3C[C@@H]12,MTT,>45.5 µM
Cc1ccc(C(C)S(=O)(=O)c2c(C)ccc[n+]2[O-])c(C)c1,-,>100 µg/mL
Nc1nc(=O)n([C@H]2C=C[C@@H](CO)O2)cc1F,-,~100 µM
Cc1cn([C@H]2C=C[C@@H](CO)O2)c(=O)[nH]c1=O,-,>250 µM
CCCCCCCCCN1C=Cc2nccc3cc(OC)c(OC)c1c23,-,1.2 µM
Cc1cn([C@H]2C[C@H](F)[C@@H](CO)O2)c(=O)n(C)c1=O,-,>500 µg/mL
Cc1cn([C@@H]2O[C@H](C3CO[Si](C(C)C)(C(C)C)O[Si](C(C)C)(C(C)C)O3)C3(OS(=O)(=O)C=C3N)[C@H]2O[Si](C)(C)C(C)(C)C)c(=O)[nH]c1=O,-,53.1 µM
C=C(C)[C@@H]1CC[C@]2(C(=O)NCCCCCCCC(=O)N3CCCC(C(=O)O)C3)CC[C@]3(C)[C@H](CC[C@@H]4[C@@]5(C)CC[C@H](O)C(C)(C)[C@@H]5CC[C@]43C)[C@@H]12,-,>3 µM

Blank or dashed fields: not listed here. Rows are shuffled and stem from different studies.